Assay results from patent US20180291088A1.

B1: EVB165 monoclonal antibody (antibody, V domains shown)
chain 1: DVQLVESGGGVVQPGGSLKLACVVSGFRFSDYWMSWVRQAPGKGLEWVANIKQDGSGKYYVDSVKGRFTVSRDNAKNSLYLHMTSLGAEDTAVYFCARAAPTGSYTNILVDNVHFDYWGQGILVAVSS
chain 2: GIQLTQSPGSLSASVGDSVTITCRPNQNIATYINWYQQTPGKAPKLLIYAASILQSGVPSRFSGAGSGTHFTLIISTLQPEDSATYYCQQSYSTPWTFGQGTKVEIK
B2: EVB100 monoclonal antibody (antibody, V domains shown)
chain 1: QVQLQESGPGLVKPSDTLSLTCTVSGGSLSSFYWSWIRQPPGKGLEWIGYIYYSGSPNYSPSLESRVTMSVDTTRNQISLKLDSVTAADTAVYYCVRASRSYYWGSYRPTAFDSWGQGTLVTVSS
chain 2: SYELTQPLSVSVSPGQTAIFTCSGDNLGDKYVCWFQQRPGQSPMLLIYQDNKRPSGIPERFSGSNSGNTATLTISGTQSTDEADYYCQTWDSTVVFGGGTKLTVL
B3: EVB166 monoclonal antibody (antibody, V domains shown)
chain 1: QVQLVQSGAEVKKPGSSVKVSCKTSGGTLSNYAISWVRQAPGQGLEWMGGTIPTLGMSTYAPNFQGRVAITADKSTSTAYMELSSLRSDDTAVYYCATMGSADTSFYFYMDVWGKGTTVTVSS
chain 2: EIVLTQSPGTLSLSPGERATLSCRASQSVSSSYLAWYQQKPGQAPRLLIYGTSSRATGIPDRFSGSASGTDFTLTISRLEPEDFAVYYCQQYAYSPFTFGPGTKVDIK

What was measured:
[1] = molecular target: EBOV GP (Mayinga variant) on pseudotyped lentivirus particles (EBOV (Zaire), Mayinga variant) (UniProt Q05320); assay: cell-based or functional assay
[2] = molecular target: EBOV GP (Mayinga variant) on pseudotyped lentivirus particles (EBOV (Zaire), Mayinga variant), Q05320; assay: cell-based or functional assay

Row | Molecule | IC50 (µg/mL), neutralization of EBOV GP-pseudotyped lentivirus on HEK293T [1] [µg/mL] | IC90 (µg/mL), neutralization of EBOV GP-pseudotyped lentivirus on HEK293T [1] [µg/mL] | IC99 (µg/mL), neutralization of EBOV GP-pseudotyped lentivirus on HEK293T [1] [µg/mL] | IC50 (µg/mL), neutralization of EBOV GP-pseudotyped lentivirus on HEK293T [2] [µg/mL] | IC90 (µg/mL), neutralization of EBOV GP-pseudotyped lentivirus on HEK293T [2] [µg/mL] | IC99 (µg/mL), neutralization of EBOV GP-pseudotyped lentivirus on HEK293T [2] [µg/mL]
1 | KZ52 monoclonal antibody | 0.06 | 17.2 | > 1000 |  |  | 
2 | B1 |  |  |  | 1.77 | 19.5 | 267
3 | B2 |  |  |  | 0.06 | 0.61 | 7.58
4 | B3 |  |  |  | 0.86 | 6.84 | 97.2
